Biological target: Original version (SARS-COV-2) (UniProt P0DTC2)
Test: flow

REGN 10933
EC50: 0.18 µg/mL

— patent publication US20260102474A1
